Results of unrelated studies side by side (data: NIAID ChemDB).

Shared fields: growth or infection tests

A number after MIC or MFC names an inhibition level or a share of isolates. ECn is the concentration giving n% inhibition of infection, replication or growth. Rows are shuffled and stem from different studies. Blank or dashed fields: not listed here. Percent inhibition refers to the dose given; in toxicity tests it is the harm to the cells.

structure | cells | species | read by | strain | measure | tested at | result
O=C1/C(=C/c2ccc(O)cc2)Oc2cc(O)ccc21 | - | Cryptosporidium parvum | - | - | inhibition | 10 µM | 3%
C[C@@H](c1nc(-c2ccc(C#N)cc2)cs1)[C@](O)(Cn1cncn1)c1cc(F)ccc1F | - | Cryptococcus gattii | broth dilution | - | MIC90 | - | 0.125 µg/mL
COc1cc(/C=C/C=C\c2ccc3c(c2)OCO3)oc(=O)c1 | - | Cryptosporidium parvum | - | - | EC50 | - | >50 µM
Cn1nc(Cc2ccc(Cl)cc2)c2ccccc2c1=O | - | Cryptococcus neoformans | broth dilution | Clinical isolate (IM 972751) | MFC | - | 250 µg/mL
COc1cc(/C=C2\Oc3cc(O)cc(O)c3C2=O)ccc1O | - | Cryptosporidium parvum | - | - | inhibition | 50 µM | 96%
Cn1ncc2c1C(=O)c1c(Cl)ccc(O)c1C2=O | - | Cryptosporidium parvum | - | - | inhibition | 10 µM | 79%
C[C@@H](c1ncncc1F)[C@](O)(Cn1cncn1)c1ccc(F)cc1F | - | Cryptococcus gattii | broth dilution | CBS 11247 | MIC | - | 0.25 µg/mL
COc1ccc(/C=C2\Oc3cc(O)cc(O)c3C2=O)cc1O | - | Cryptosporidium parvum | - | - | inhibition | 25 µM | 65%
Oc1ccccc1N=Cc1cccc(O)c1O | - | Cryptococcus neoformans | broth dilution | 5396 | MIC | - | 4 µg/mL
CC[C@@H](C(=O)[C@@H](C)[C@@H](O)[C@H](C)CCc1ccc(C)c(O)c1C(=O)O)[C@H]1O[C@](CC)([C@H]2CC[C@](O)(CC)[C@H](C)O2)C[C@@H]1C | MDCK | Cryptosporidium parvum | luminescence | IOWA | inhibition | 2 µg/mL | 80.2%
O=C1COc2cc(O)ccc21 | - | Cryptosporidium parvum | - | - | inhibition | 50 µM | 4%
Oc1ccccc1C=Nc1ccccc1O | - | Cryptococcus gattii | - | 1913 ER | MIC99 | - | 11.3 µg/mL
O=C1c2cccc(Cl)c2C(=O)c2cn[nH]c21 | - | Cryptosporidium parvum | - | - | inhibition | 10 µM | 17%
CN[C@H]1CC[C@@H](c2ccc(Cl)c(Cl)c2)c2ccccc21 | - | Cryptococcus neoformans | broth dilution | H99 | MFC | - | 10 µg/mL
O=C1/C(=C/c2cccc(O)c2)Oc2cc(O)ccc21 | - | Cryptosporidium parvum | - | - | inhibition | 50 µM | 92%
Oc1ccccc1N=Cc1ccc(O)c(O)c1O | - | Cryptococcus neoformans | broth dilution | WP | MIC | - | 11.3 µg/mL
CC1(C)O[C@H]2[C@H](O)[C@@H](N=[N+]=[N-])C=C(c3ccc(C=O)cc3)[C@H]2O1 | - | Cryptococcus neoformans | broth dilution / turbidity | ATCC 32264 | inhibition | 15.6 µg/mL | 0%
Cc1nc(NCCCCNc2ccnc3cc(Cl)ccc23)nc(-c2ccccc2[N+](=O)[O-])c1C(=O)OC(C)C | - | Cryptococcus neoformans | - | 96806 | MIC99 | - | 45.3 µg/mL
CC(=O)Oc1ccccc1C(=O)Nc1ncc([N+](=O)[O-])s1 | A549 | Cryptosporidium parvum | - | - | inhibition | 0.5 µg/mL | 11.8%
C=C/C=C/c1cc(OC)cc(=O)o1 | - | Cryptosporidium parvum | - | - | inhibition | 50 µM | 98%
Cn1ncc2c1C(=O)c1cccc(Br)c1C2=O | - | Cryptosporidium parvum | - | - | inhibition | 25 µM | 42%
COc1cc(/C=C2\Oc3cc(O)cc(O[C@@H]4O[C@H](CO)[C@@H](O)[C@H](O)[C@H]4O)c3C2=O)cc(OC)c1OC(C)=O | - | Cryptosporidium parvum | - | - | EC50 | - | >50 µM
NCCCC[C@H](NC(=O)[C@H](CCCN=C(N)N)NC(=O)[C@H](CCCN=C(N)N)NC(=O)[C@H](CCCCN)NC(=O)[C@H](CCCCN)NC(=O)[C@@H](N)CCCCN)C(=O)N[C@@H](CCCN=C(N)N)C(=O)O | - | Cryptococcus neoformans | - | ATCC 32264 | inhibition | 200 µM | 60%
CC(=O)Oc1ccccc1C(=O)Nc1ncc([N+](=O)[O-])s1 | MDBK | Cryptosporidium parvum | cell count | - | inhibition | 10 µg/mL | 93%
Cc1cc(O)c2c(c1)C(=O)c1c(cnn1C)C2=O | - | Cryptosporidium parvum | - | - | inhibition | 10 µM | <10%

The first 3 rows once more:

| structure | cells | species | read by | strain | measure | tested at | result |
|---|---|---|---|---|---|---|---|
| O=C1/C(=C/c2ccc(O)cc2)Oc2cc(O)ccc21 | - | Cryptosporidium parvum | - | - | inhibition | 10 µM | 3% |
| C[C@@H](c1nc(-c2ccc(C#N)cc2)cs1)[C@](O)(Cn1cncn1)c1cc(F)ccc1F | - | Cryptococcus gattii | broth dilution | - | MIC90 | - | 0.125 µg/mL |
| COc1cc(/C=C/C=C\c2ccc3c(c2)OCO3)oc(=O)c1 | - | Cryptosporidium parvum | - | - | EC50 | - | >50 µM |